A mixed list of measured activities; the numbers were collected in NIAID ChemDB.

Common to all: tests in culture

MIC50, MIC90 and the like: level of inhibition, or share of isolates inhibited.

SMILES | strain | mutations | conditions | endpoint | method | species | result
C[C@@H]1CN(c2cc3c(cc2F)c(=O)c(C(=O)O)cn3C(C)(C)C)C[C@H](C)N1 | 14 strains | - | - | MIC90 | - | Mycobacterium avium complex | 1 µg/mL
NNC(=S)N/N=C/c1cn(Cc2ccccc2F)c2ccccc12 | 1173P2 | - | 48 h | MIC100 | broth dilution | Mycobacterium bovis BCG | >500 µg/mL
CC1CN(c2c(F)cc3c(=O)c(C(=O)O)cn(C4CC4)c3c2F)CCN1 | KD1990 (GYRA D95A) | - | - | MIC99 | - | Mycobacterium smegmatis | 0.47 µg/mL
O=C(Nc1ccc(C(F)(F)F)cc1)c1cc(Br)ccc1OP(=O)(c1ccccc1)c1ccccc1 | My 6509/96 | - | 21 d | MIC | - | Mycobacterium kansasii | 4 µM
CCN1CCN(c2c(F)cc3c(=O)c(C(=O)O)cn(C4CC4)c3c2F)CC1 | KD1998 (GYRA D95N) | - | - | MIC99 | - | Mycobacterium smegmatis | 2.6 µg/mL
COc1c(N2CCNC(C)C2)c(F)cc2c(=O)c(C(=O)O)cn(C3CC3)c12 | 14 strains | - | - | MIC50 | - | Mycobacterium avium complex | 0.25 µg/mL
COc1c(N2CC(C)NC(C)C2)c(F)cc2c(=O)c(C(=O)O)cn(C3CC3)c12 | KD1987 (GYRA A91V) | - | - | MIC99 | - | Mycobacterium smegmatis | 0.41 µg/mL
CN[C@@H]1[C@H](O[C@H]2[C@H](O[C@H]3[C@H](O)[C@@H](O)[C@H](N=C(N)N)[C@@H](O)[C@@H]3N=C(N)N)O[C@@H](C)[C@]2(O)C=O)O[C@@H](CO)[C@H](O)[C@H]1O | isolate C-29 30 | - | - | MIC | - | Mycobacterium avium complex | 400 µg/mL
O=C(Nc1ccc(Cl)c(Cl)c1)c1cc(Cl)ccc1OP(=O)(c1ccccc1)c1ccccc1 | My 6509/96 | - | 21 d | MIC | - | Mycobacterium kansasii | 8 µM
CCCCn1cc(/C=N/Nc2nncs2)c2ccccc21 | 1173P2 | - | 48 h | MIC100 | broth dilution | Mycobacterium bovis BCG | 3.91 µg/mL
CC[C@H]1OC(=O)[C@H](C)[C@@H](O[C@H]2C[C@@](C)(OC)[C@@H](O)[C@H](C)O2)[C@H](C)[C@@H](O[C@@H]2O[C@H](C)C[C@H](N(C)C)[C@H]2O)[C@](C)(OC)C[C@@H](C)C(=O)[C@H](C)[C@@H](O)[C@]1(C)O | x48 | - | - | MIC | broth dilution | Mycobacterium abscessus | 2 µg/mL
COc1c(N2CCN(C(C)C)CC2)c(F)cc2c(=O)c(C(=O)O)cn(C3CC3)c12 | KD2008 (GYRA G89C) | - | - | MIC99 | - | Mycobacterium smegmatis | 7.5 µg/mL
CCC1CN(c2cc3c(cc2F)c(=O)c(C(=O)O)cn3-c2ccc(F)cc2F)CCN1 | 14 strains | - | - | MIC50 | - | Mycobacterium avium complex | 8 µg/mL
O=C1c2ccccc2OP(=O)(c2ccccc2)N1c1ccccc1 | My 6509/96 | - | 7 d | MIC | - | Mycobacterium kansasii | 500 µM
Brc1ccc(Cn2cc(/C=N/Nc3nncs3)c3ccccc32)cc1 | 1173P2 | - | 24 h | MIC100 | broth dilution | Mycobacterium bovis BCG | 3.91 µg/mL
CN(C)c1cc(NC(=O)CNC(C)(C)C)c(O)c2c1C[C@H]1C[C@H]3[C@H](N(C)C)C(=O)C(C(N)=O)=C(O)[C@@]3(O)C(=O)C1=C2O | X88 | - | - | MIC | broth dilution | Mycobacterium abscessus | 0.5 µg/mL
CCCCCCCNC(=O)Nc1ccc(S(=O)(=O)Nc2cc(C)on2)cc1 | 6509/96 clinical isolate | - | 7 d | MIC100 | broth dilution / absorbance | Mycobacterium kansasii | 4 µM
COc1nc2ccc(Br)cc2cc1[C@@H](c1ccccc1)[C@@](O)(CCN(C)C)c1cccc2ccccc12 | - | T125 insertion | - | MIC | resazurin | Mycobacterium aurum | 0.04 µg/mL
O=C(Nc1ccc(C(F)(F)F)cc1)c1cc(Br)ccc1OP(=O)(OCc1ccccc1)OCc1ccccc1 | My 6509/96 | - | 21 d | MIC | - | Mycobacterium kansasii | 16 µM
CC1CN(c2cc3c(cc2F)c(=O)c(C(=O)O)cn3C2CC2)CCN1 | KD1987 (GYRA A91V) | - | - | MIC99 | - | Mycobacterium smegmatis | 1.2 µg/mL
O=C(Nc1ccc(Br)cc1)c1cc(Cl)ccc1OP(=O)(c1ccccc1)c1ccccc1 | My 6509/96 | - | 7 d | MIC | - | Mycobacterium kansasii | 8 µM
CCC1CN(c2c(F)cc3c(=O)c(C(=O)O)cn(C4CC4)c3c2OC)CCN1 | KD1991 (GYRA D95Y) | - | - | MIC99 | - | Mycobacterium smegmatis | 0.47 µg/mL
CO[C@H]1/C=C/O[C@@]2(C)Oc3c(C)c(O)c4c(O)c(c(N5CCN(Cc6c(C)cc(C)cc6C)CC5)c(O)c4c3C2=O)NC(=O)/C(C)=C\C=C\[C@H](C)[C@H](O)[C@@H](C)[C@@H](O)[C@@H](C)[C@H](OC(C)=O)[C@@H]1C | 3337-4 | - | - | MBC | - | Mycobacterium avium | 8 µg/mL
C[C@@H]1CN(c2c(F)c(N)c3c(=O)c(C(=O)O)cn(C4CC4)c3c2F)C[C@H](C)N1 | 20 | - | - | MIC | broth dilution | Mycobacterium avium complex | 2 µg/mL
Cc1cccc(Cn2cc(/C=N/Nc3nncs3)c3ccccc32)c1 | 1173P2 | - | 48 h | MIC100 | broth dilution | Mycobacterium bovis BCG | 62.5 µg/mL
CC(C)N1CCN(c2nc3c(cc2F)c(=O)c(C(=O)O)cn3C(C)(C)C)CC1 | 14 strains | - | - | MIC90 | - | Mycobacterium avium complex | 4 µg/mL
Cc1cc(NS(=O)(=O)c2ccc(NC(=O)N(C(C)C)C(C)C)cc2)no1 | 235/80 | - | 14 d | MIC100 | broth dilution / absorbance | Mycobacterium kansasii | 250 µM
COc1c(N2CCNCC2)c(F)cc2c(=O)c(C(=O)O)cn(C3CC3)c12 | KD1987 (GYRA A91V) | - | - | MIC99 | - | Mycobacterium smegmatis | 0.41 µg/mL
Cc1cc(NS(=O)(=O)c2ccc(NC(=O)C(=O)Nc3ccc(S(=O)(=O)Nc4cc(C)on4)cc3)cc2)no1 | 235/80 | - | 7 d | MIC100 | broth dilution / absorbance | Mycobacterium kansasii | 8 µM
CC[C@@H](C(=O)[C@@H](C)[C@@H](O)[C@H](C)[C@@H]1O[C@@H]([C@@H](CC)C(=O)O)CC[C@@H]1C)[C@H]1O[C@@]2(C=C[C@@H](O)[C@@]3(CC[C@@](C)([C@H]4CC[C@](O)(CC)[C@H](C)O4)O3)O2)[C@H](C)C[C@@H]1C | - | C410 deletion | - | MIC | resazurin | Mycobacterium aurum | 0.08 µg/mL
CO[C@H]1/C=C/O[C@@]2(C)Oc3c(C)c(O)c4c(O)c(c5c(c4c3C2=O)NC2(CCN(CC(C)C)CC2)N=5)=NC(=O)/C(C)=C\C=C\[C@H](C)[C@H](O)[C@@H](C)[C@@H](O)[C@@H](C)[C@H](OC(C)=O)[C@@H]1C | 20 isolates | - | - | MIC90 | - | Mycobacterium avium intracellulare | 1 µg/mL
CCN1CCN(c2c(F)cc3c(=O)c(C(=O)O)cn(C4CC4)c3c2OC)CC1 | KD1990 (GYRA D95A) | - | - | MIC99 | - | Mycobacterium smegmatis | 0.41 µg/mL
CCNC(=O)Nc1ccc(S(=O)(=O)Nc2cc(C)on2)cc1 | 235/80 | - | 21 d | MIC100 | broth dilution / absorbance | Mycobacterium kansasii | 250 µM
O=C(O)c1cn(-c2ccc(F)cc2F)c2nc(N3CCNCC3)c(F)cc2c1=O | 14 strains | - | - | MIC50 | - | Mycobacterium avium complex | ≥32 µg/mL
COc1cc(Cc2cnc(N)nc2N)cc(OC)c1OC | ATCC 19423 | - | - | MIC | - | Mycobacterium ulcerans | >16 µg/mL
O=C(Nc1ccc(C(F)(F)F)cc1)c1cc(Cl)ccc1OP(=O)(OCc1ccccc1)OCc1ccccc1 | My 235/80 | - | 21 d | MIC | - | Mycobacterium kansasii | 32 µM
CO[C@H]1/C=C/O[C@@]2(C)Oc3c(C)c(O)c4c(O)c(c5c(c4c3C2=O)NC2(CCN(CC(C)C)CC2)N=5)=NC(=O)/C(C)=C\C=C\[C@H](C)[C@H](O)[C@@H](C)[C@@H](O)[C@@H](C)[C@H](OC(C)=O)[C@@H]1C | 189-4 | - | - | MIC | - | Mycobacterium avium complex | 0.5 µg/mL
Nc1ccc(S(=O)(=O)c2ccc(N)cc2)cc1 | Isolate 94-539 | - | - | MIC | - | Mycobacterium ulcerans | 2 µg/mL
CC1CN(c2c(F)cc3c(=O)c(C(=O)O)cn(C4CC4)c3c2F)CC(C)N1 | KD1998 (GYRA D95N) | - | - | MIC99 | - | Mycobacterium smegmatis | 1.3 µg/mL
O=C(Nc1ccc(Br)cc1)c1cc(Cl)ccc1OP(=O)(OCc1ccccc1)OCc1ccccc1 | My 6509/96 | - | 7 d | MIC | - | Mycobacterium kansasii | 32 µM
NNC(=O)c1ccncc1 | 330/88 | - | 21 d | MIC100 | broth dilution / absorbance | Mycobacterium kansasii | >250 µM
CCC1CN(c2c(F)cc3c(=O)c(C(=O)O)cn(C4CC4)c3c2OC)CCN1 | 14 strains | - | - | MIC90 | - | Mycobacterium avium complex | 4 µg/mL
Fc1ccc(Cn2cc(/C=N/Nc3nncs3)c3ccccc32)cc1 | 1173P2 | - | 48 h | MIC100 | broth dilution | Mycobacterium bovis BCG | 3.91 µg/mL

A second listing of 2 rows from above:

SMILES,strain,mutations,conditions,endpoint,method,species,result
COc1c(N2CCNC(C)C2)c(F)cc2c(=O)c(C(=O)O)cn(C3CC3)c12,14 strains,-,-,MIC50,-,Mycobacterium avium complex,0.25 µg/mL
COc1c(N2CCNCC2)c(F)cc2c(=O)c(C(=O)O)cn(C3CC3)c12,KD1987 (GYRA A91V),-,-,MIC99,-,Mycobacterium smegmatis,0.41 µg/mL

Lines come from different laboratories, so protocols vary. An empty or dashed field is not shown.